The target in this test is D180A Ralstonia solanacearum Isocyanide Hydratase (Ralstonia solanacearum). The test can be described thus: crystal structure; wild-type RsICH (0.74 Å) and D180A RsICH (1.00 Å).

For orientation: stoichiometry N means a count of units in the complex or per binding partner. Regarding “D180A Ralstonia solanacearum Isocyanide Hydratase (enzyme)”, the stoichiometry N amounted to 2.

Values taken from article PMC10792529 (2023).
